Columns and labels:
[1] = target: carcinoembryonic antigen (CEA) on human cancer cell lines, human, P06731 35-685; assay: cell-based or functional assay
[2] = target: epidermal growth factor receptor (EGFR) on human cancer cell lines, human, P00533 25-1210; assay: cell-based or functional assay

Substance | IC50 of cytotoxicity on HT-29 cells [1] [nM] | IC50 of cytotoxicity on HT-1080 (CEA) cells [1] [pM] | IC50 of cytotoxicity on A431 cells [2] [nM] | IC50 of cytotoxicity on HT-29 cells [2] [nM] | IC50 of cytotoxicity on HT-1080 (CEA) cells [2] [nM]
C7PFO (anti-CEA Fn3-perfringolysin O) | 0.12 | 7 | – | – | –
E6PFO (anti-EGFR Fn3-perfringolysin O) | – | – | 0.54 | 0.015 | 0.01

Reference: patent publication US20150174265, “REVERSIBLE MASKING OF PORE-FORMING PROTEINS FOR MACROMOLECULAR DELIVERY” (published 2015)
